Test results from US20250332276A1, “Inhibitors of Molluscum Contagiosum Infection and Methods Using the Same” (priority 2022, published 2025).
*1 amine or outer side, *2 acyl side, *3 side chain or, on linkers, in order; H or OH if unused. Where a SMILES comes first, the peptide text is derived from it. The star is where a group is joined. X1 = CCC(C(=O)Nc1sc(C(=O)*)c(C)c1C(=O)OC)c1ccc(C(F)(F)F)cc1; Ethylenediamine = C(CN[*:2])N[*:1]; Boc = CC(C)(C)OC(=O)*

tested on: mD4-VV surrogate virus; experiment: microbe, parasite or virus in culture; type: cell-based, vaccinia virus (VV); conditions: Orthopoxvirus vaccinia, read-out: EC50 (μM), antiviral mD4/VV activity

First: CCC(C(=O)Nc1sc(C(=O)NCCNC(=O)[C@@H](NC(=O)[C@@H](NC(=O)[C@@H](N)Cc2ccccc2)C(C)C)C(C)C)c(C)c1C(=O)OC)c1ccc(F)cc1 (stereo partly drawn) [Compound 21, Methyl 5-((2-((S)-2-((S)-2-((S)-2-amino-3-phenylpropanamido)-3-methylbutanamido)-3-methylbutanamido)ethyl)carbamoyl)-2-(2-(4-fluorophenyl)butanamido)-4-methylthiophene-3-carboxylate]
Second: CCC(C(=O)Nc1sc(C(=O)NCCNC(=O)[C@@H](NC(=O)[C@@H](NC(=O)CN)C(C)C)C(C)C)c(C)c1C(=O)OC)c1ccc(F)cc1 (stereo partly drawn) [Compound 22, Methyl 5-((2-((S)-2-((S)-2-(2-aminoacetamido)-3-methylbutanamido)-3-methylbutanamido)ethyl)carbamoyl)-2-(2-(4-fluorophenyl)butanamido)-4-methylthiophene-3-carboxylate]
The EC50 of the first is 5.1-fold higher: 61.4 µM for the first, 12.1 µM for the second.

Going from `CCC(C(=O)Nc1sc(C(=O)NCCNC(=O)[C@@H](NC(=O)[C@@H](N)C(C)C)C(C)C)c(C)c1C(=O)OC)c1ccc(C(F)(F)F)cc1` (stereo partly drawn) [Compound 24, Methyl 5-((2-((S)-2-((S)-2-amino-3-methylbutanamido)-3-methylbutanamido)ethyl)carbamoyl)-4-methyl-2-(2-(4-(trifluoromethyl)phenyl)butanamido)thiophene-3-carboxylate] to `CCC(C(=O)Nc1sc(C(=O)NCCCNC(=O)[C@@H](NC(=O)[C@@H](N)C(C)C)C(C)C)c(C)c1C(=O)OC)c1ccc(F)cc1` (stereo partly drawn) [Compound 48, methyl 5-((3-((S)-2-((S)-2-amino-3-methylbutanamido)-3-methylbutanamido)propyl)carbamoyl)-2-(2-(4-fluorophenyl)butanamido)-4-methylthiophene-3-carboxylate], the EC50 rises from 13 µM to 20.5 µM (1.6-fold). The first is the more potent here.

First: CCC(C(=O)Nc1sc(C(=O)NCCNC(=O)[C@@H](NC(=O)[C@@H](NC(=O)[C@@H](NC(=O)[C@@H](NC(=O)OC(C)(C)C)C(C)C)C(C)C)C(C)C)C(C)C)c(C)c1C(=O)OC)c1ccc(C(F)(F)F)cc1 (stereo partly drawn) [Compound 26, Methyl 4-methyl-5-(((6S,9S,12S,15S)-6,9,12,15-tetraisopropyl-2,2-dimethyl-4,7,10,13,16-pentaoxo-3-oxa-5,8,11,14,17-pentaazanonadecan-19-yl)carbamoyl)-2-(2-(4-(trifluoromethyl)phenyl)butanamido)thiophene-3-carboxylate] (Boc-VVVV-{Ethylenediamine-X1})
Second: CCC(C(=O)Nc1sc(C(=O)NCCNC(=O)[C@@H](NC(=O)[C@@H](NC(=O)[C@@H](NC(=O)[C@@H](N)C(C)C)C(C)C)C(C)C)C(C)C)c(C)c1C(=O)OC)c1ccc(C(F)(F)F)cc1 (stereo partly drawn) [Compound 28, methyl 5-(((5S,8S,11S,14S)-14-amino-5,8,11-triisopropyl-15-methyl-4,7,10,13-tetraoxo-3,6,9,12-tetraazahexadecyl)carbamoyl)-4-methyl-2-(2-(4-(trifluoromethyl)phenyl)butanamido)thiophene-3-carboxylate] (H-VVVV-{Ethylenediamine-X1})
The EC50 of the first is 5.4-fold lower: 1.1 µM for the first, 5.9 µM for the second. The first is the more potent here.

`CCC(C(=O)Nc1sc(C(=O)NCCNC(=O)[C@H](C)NC(=O)[C@H](C)NC(=O)OC(C)(C)C)c(C)c1C(=O)OC)c1ccc(C(F)(F)F)cc1` (stereo partly drawn) [Compound 29, methyl 4-methyl-5-(((6S,9S)-2,2,6,9-tetramethyl-4,7,10-trioxo-3-oxa-5,8,11-triazatridecan-13-yl)carbamoyl)-2-(2-(4-(trifluoromethyl)phenyl)butanamido)thiophene-3-carboxylate] and `CCC(C(=O)Nc1sc(C(=O)NCCNC(=O)[C@H](C)NC(=O)[C@H](C)N)c(C)c1C(=O)OC)c1ccc(C(F)(F)F)cc1` (stereo partly drawn) [Compound 30, methyl 5-((2-((S)-2-((S)-2-aminopropanamido)propanamido)ethyl)carbamoyl)-4-methyl-2-(2-(4-(trifluoromethyl)phenyl)butanamido)thiophene-3-carboxylate] are the same in EC50: 31.3 µM for the first, 31.3 µM for the second.

`CCC(C(=O)Nc1sc(C(N)=O)c(C)c1C(=O)NCCNC(=O)OC(C)(C)C)c1ccc(F)cc1` (centres unmarked) [Compound 32, tert-butyl (2-(5-carbamoyl-2-(2-(4-fluorophenyl)butanamido)-4-methylthiophene-3-carboxamido)ethyl)carbamate] and `CCC(C(=O)Nc1sc(C(=O)NCCOCCNC(=O)OC(C)(C)C)c(C)c1C(=O)OC)c1ccc(F)cc1` (centres unmarked) [Compound 43, methyl 5-((2-(2-((tert-butoxycarbonyl)amino)ethoxy)ethyl)carbamoyl)-2-(2-(4-fluorophenyl)butanamido)-4-methylthiophene-3-carboxylate] are within 1.5-fold of each other in EC50: 29.5 µM for the first, 29.9 µM for the second.

`CCC(C(=O)Nc1sc(C(N)=O)c(C)c1C(=O)NCCNC(=O)[C@@H](NC(=O)[C@@H](NC(=O)[C@@H](NC(=O)OC(C)(C)C)C(C)C)C(C)C)C(C)C)c1ccc(F)cc1` (stereo partly drawn) [Compound 40, tert-butyl ((7S,10S,13S)-1-(5-carbamoyl-2-(2-(4-fluorophenyl)butanamido)-4-methylthiophen-3-yl)-7,10-diisopropyl-14-methyl-1,6,9,12-tetraoxo-2,5,8,11-tetraazapentadecan-13-yl)carbamate] and `CCC(C(=O)Nc1sc(C(=O)NCCNC(=O)[C@H](C)NC(=O)[C@@H](NC(=O)OC(C)(C)C)C(C)C)c(C)c1C(=O)OC)c1ccc(F)cc1` (stereo partly drawn) [Compound 44, methyl 2-(2-(4-fluorophenyl)butanamido)-5-(((6S,9S)-6-isopropyl-2,2,9-trimethyl-4,7,10-trioxo-3-oxa-5,8,11-triazatridecan-13-yl)carbamoyl)-4-methylthiophene-3-carboxylate] are within 1.5-fold of each other in EC50: 38.9 µM for the first, 35.9 µM for the second.

Compared with `CCC(C(=O)Nc1sc(C(=O)NCCCN)c(C)c1C(=O)OC)c1ccc(F)cc1` (centres unmarked) [Compound 42, methyl 5-((3-aminopropyl)carbamoyl)-2-(2-(4-fluorophenyl)butanamido)-4-methylthiophene-3-carboxylate], `CCC(C(=O)Nc1sc(C(=O)NCCN)c(C)c1C(=O)OC)c1ccc(C#N)cc1` (centres unmarked) [Compound 61, methyl 5-((2-aminoethyl)carbamoyl)-2-(2-(4-cyanophenyl)butanamido)-4-methylthiophene-3-carboxylate] is 1.8-fold higher in EC50: 20 µM for the first, 36.1 µM for the second.

`CCC(C(=O)Nc1sc(C(=O)NCCNC(=O)[C@H](C)NC(=O)[C@@H](N)C(C)C)c(C)c1C(=O)OC)c1ccc(F)cc1` (stereo partly drawn) [Compound 45, methyl 5-((2-((S)-2-((S)-2-amino-3-methylbutanamido)propanamido)ethyl)carbamoyl)-2-(2-(4-fluorophenyl)butanamido)-4-methylthiophene-3-carboxylate] and `CCC(C(=O)Nc1sc(C(=O)NCCOCCNC(=O)[C@@H](NC(=O)[C@@H](N)C(C)C)C(C)C)c(C)c1C(=O)OC)c1ccc(F)cc1` (stereo partly drawn) [Compound 49, methyl 5-((2-(2-((S)-2-((S)-2-amino-3-methylbutanamido)-3-methylbutanamido)ethoxy)ethyl)carbamoyl)-2-(2-(4-fluorophenyl)butanamido)-4-methylthiophene-3-carboxylate] are within 1.5-fold of each other in EC50: 33 µM for the first, 33.4 µM for the second.

Compared with `CCC(C(=O)Nc1sc(C(N)=O)c(C)c1C(=O)OC)c1ccc(C#N)cc1` (centres unmarked) [Compound 54, methyl 5-carbamoyl-2-(2-(4-cyanophenyl)butanamido)-4-methylthiophene-3-carboxylate], `CCC(C(=O)Nc1sc(C(N)=O)c(C)c1C(=O)OC)c1cccc(C)c1` (centres unmarked) [Compound 70, methyl 5-carbamoyl-4-methyl-2-(2-(m-tolyl)butanamido)thiophene-3-carboxylate] is 7-fold lower in EC50: 42 µM for the first, 6 µM for the second.

Compared with `CCC(C(=O)Nc1sc(C(=O)NCCN)c(C)c1C(=O)OC)c1ccc2c(c1)OCO2` (centres unmarked) [Compound 55, methyl 5-((2-aminoethyl)carbamoyl)-2-(2-(benzo[d][1,3]dioxol-5-yl)butanamido)-4-methylthiophene-3-carboxylate], `CCC(C(=O)Nc1sc(C(=O)NCCN)c(C)c1C(=O)OC)c1ccc(F)c(F)c1` (centres unmarked) [Compound 72, methyl 5-((2-aminoethyl)carbamoyl)-2-(2-(3,4-difluorophenyl)butanamido)-4-methylthiophene-3-carboxylate] is 1.6-fold lower in EC50: 12.3 µM for the first, 7.8 µM for the second. The second is the more potent here.

Compared with `CCC(C(=O)Nc1sc(C(=O)NCCNC(=O)[C@@H](NC(=O)[C@@H](NC(=O)[C@@H](N)C(C)C)C(C)C)C(C)C)c(C)c1C(=O)OC)c1ccc2c(c1)OCO2` (stereo partly drawn) [Compound 57, methyl 5-((2-((S)-2-((S)-2-((S)-2-amino-3-methylbutanamido)-3-methylbutanamido)-3-methylbutanamido)ethyl)carbamoyl)-2-(2-(benzo[d][1,3]dioxol-5-yl)butanamido)-4-methylthiophene-3-carboxylate], `CCC(C(=O)Nc1sc(C(=O)NCCNC(=O)[C@@H](NC(=O)[C@@H](NC(=O)[C@@H](N)C(C)C)C(C)C)C(C)C)c(C)c1C(=O)OC)c1ccc(F)c(F)c1` (stereo partly drawn) [Compound 74, methyl 5-((2-((S)-2-((S)-2-((S)-2-amino-3-methylbutanamido)-3-methylbutanamido)-3-methylbutanamido)ethyl)carbamoyl)-2-(2-(3,4-difluorophenyl)butanamido)-4-methylthiophene-3-carboxylate] is 23-fold lower in EC50: about 25 µM for the first, 1.1 µM for the second.

Going from `CCC(C(=O)Nc1sc(C(=O)NCCN)c(C)c1C(=O)OC)c1cc(F)cc(F)c1` (centres unmarked) [Compound 58, methyl 5-((2-aminoethyl)carbamoyl)-2-(2-(3,5-difluorophenyl)butanamido)-4-methylthiophene-3-carboxylate] to `CCC(C(=O)Nc1sc(C(N)=O)c(C)c1C(=O)OC)c1ccc(F)c(F)c1` (centres unmarked) [Compound 69, methyl 5-carbamoyl-2-(2-(3,4-difluorophenyl)butanamido)-4-methylthiophene-3-carboxylate], the EC50 falls from 8.7 µM to 4 µM (2.2-fold). The second is the more potent here.

`CCC(C(=O)Nc1sc(C(=O)NCCNC(=O)[C@@H](NC(=O)[C@@H](NC(=O)[C@@H](N)C(C)C)C(C)C)C(C)C)c(C)c1C(=O)OC)c1cc(F)cc(F)c1` (stereo partly drawn) [Compound 60, methyl 5-((2-((S)-2-((S)-2-((S)-2-amino-3-methylbutanamido)-3-methylbutanamido)-3-methylbutanamido)ethyl)carbamoyl)-2-(2-(3,5-difluorophenyl)butanamido)-4-methylthiophene-3-carboxylate] and `CCC(C(=O)Nc1sc(C(N)=O)c(C)c1C(=O)OC)c1cccc(C(F)(F)F)c1` (centres unmarked) [Compound 71, methyl 5-carbamoyl-4-methyl-2-(2-(3-(trifluoromethyl)phenyl)butanamido)thiophene-3-carboxylate] are within 1.5-fold of each other in EC50: 3.5 µM for the first, 4.1 µM for the second.
